{
  "source": "paper PMC6191443",
  "about": "“Structural basis for arginine glycosylation of host substrates by bacterial effector proteins” (2018)",
  "key": {"SseK2 [1]": {"target": "T1, SseK2 (Salmonella enterica, UniProt P0DUJ8)", "experiment": "UDP-Glo glycosyltransferase assay", "details": "co-substrate UDP-GlcNAc, pH 7.5, 4 mM MnCl2"}, "SseK1": {"target": "SseK1 (Salmonella enterica, UniProt A0A0H3NK84)", "experiment": "UDP-Glo glycosyltransferase assay", "details": "co-substrate UDP-GlcNAc, pH 7.5, 4 mM MnCl2"}, "SseK2 [2]": {"target": "T1, SseK2", "experiment": "crystal structure", "details": "co-crystallized with 5 mM UDP and 5 mM MnCl2"}, "NleB1": {"target": "NleB1 (Escherichia coli, UniProt Q8XBX8)", "experiment": "in vitro glycosylation, anti-Arg-GlcNAc Western blot", "details": "1 mM UDP-GlcNAc, 10 mM MnCl2, pH 7.4, room temperature; acceptor FADD, TRADD or GAPDH"}},
  "data": [
    {"smiles": "N=C(N)NCCC[C@H](N)C(=O)O", "values": [
      {"measurement": "Km", "setting": "SseK2 [1]", "value": "enzyme kinetics using the L-arginine substrate and the purified recombinant SseK1 and SseK2"},
      {"measurement": "Km", "setting": "SseK1", "value": "enzyme kinetics using the L-arginine substrate and the purified recombinant SseK1 and SseK2"}
    ]},
    {"smiles": "O=c1ccn([C@@H]2O[C@H](COP(=O)(O)OP(=O)(O)O)[C@@H](O)[C@H]2O)c(=O)[nH]1", "values": [
      {"measurement": "crystal structure", "setting": "SseK2 [2]", "value": "SseK2 was solved both in its unliganded form and in complex with UDP and UDP-GlcNAc"}
    ]},
    {"smiles": "CC(=O)N[C@H]1[C@@H](OP(=O)(O)OP(=O)(O)OC[C@H]2O[C@@H](n3ccc(=O)[nH]c3=O)[C@H](O)[C@@H]2O)O[C@H](CO)[C@@H](O)[C@@H]1O", "values": [
      {"measurement": "in vitro glycosylation, anti-Arg-GlcNAc Western blot", "setting": "NleB1", "value": "WT NleB1, SseK1, and SseK2 glycosylated FADD"}
    ]}
  ]
}
